Measured values from paper PMC9312377.

Tests used:
[1] = test system: rg-A/California/04/2009 (H1N1)pdm09 PA WT; conditions: read-out: BXA susceptibility in the plaque reduction assay (EC50 ± SEM), MDCK cells, 72 or 96 hpi
[2] = test system: recombinant A(H3N2) PAN WT
[3] = biological target: A(H3N2) polymerase complex PA E23G (Influenza A virus, UniProt P31343, E23G, cells depend on it); assay: Minireplicon luciferase reporter assay, BXA susceptibility; conditions: 5 nM BXA; E23G complex, A(H3N2)
[4] = biological target: recombinant A(H1N1)pdm09 PAN E23G+I38T (Influenza A virus, UniProt C3W5S0, DEL51-57/DEL61-72/E23G/E59G/I38T); assay: Modified thermofluor assay, BXA-rPAN thermal stabilization; conditions: for SYPRO Orange signal: 37uM BXA
[5] = biological target: recombinant A(H1N1)pdm09 PAN WT (Influenza A virus, UniProt C3W5S0, DEL51-57/DEL61-72/E59G); assay: as above; conditions: 37uM BXA, 30 °C

O=C1c2c(O)c(=O)ccn2N([C@@H]2c3ccccc3SCc3c2ccc(F)c3F)[C@@H]2COCCN12
EC50 [1]: 0.22 nM and 0.217 nM
Tm (°C) with BXA ([2]; A(H3N2) PAN WT 2 μM, BXA 37 μM): 79 °C and 79.0 ± 0.1 °C
ΔTm (°C) ([2]; A(H3N2) PAN WT, DMSO vs BXA 37 μM): 25.0 ± 0.3 °C
polymerase complex activity inhibited [3]: 57%
SYPRO Orange signal ([4]; 30 °C): 2647.88 RFU and 2395.74 RFU and 3665.54 RFU
SYPRO Orange signal ([4]; 31 °C): 3328.75 RFU and 3123.52 RFU and 3637.27 RFU
SYPRO Orange signal ([4]; 32 °C): 3673.79 RFU and 3125.55 RFU and 4171.85 RFU
SYPRO Orange signal ([4]; 33 °C): 4101.05 RFU and 3060.34 RFU and 3951.81 RFU
SYPRO Orange signal ([4]; 34 °C): 4576.19 RFU and 3343.4 RFU and 4630.66 RFU
SYPRO Orange signal ([4]; 35 °C): 4607.68 RFU and 3528.86 RFU and 4418.86 RFU
SYPRO Orange signal ([4]; 36 °C): 4818.6 RFU and 3761.07 RFU and 4869.73 RFU
SYPRO Orange signal ([4]; 37 °C): 4633.54 RFU and 3616.94 RFU and 5063.77 RFU
SYPRO Orange signal ([4]; 38 °C): 4675.78 RFU and 3340.54 RFU and 4704.53 RFU
SYPRO Orange signal ([4]; 39 °C): 4398.92 RFU and 3535.53 RFU and 4813.75 RFU
SYPRO Orange signal ([4]; 40 °C): 4195.88 RFU and 3721.04 RFU and 4878.33 RFU
SYPRO Orange signal ([4]; 41 °C): 4474.6 RFU and 4118.37 RFU and 5056.58 RFU
SYPRO Orange signal ([4]; 42 °C): 4431.7 RFU and 4045.57 RFU and 4834.89 RFU
SYPRO Orange signal ([4]; 43 °C): 4232.52 RFU and 3855.53 RFU and 4998.06 RFU
SYPRO Orange signal ([4]; 44 °C): 4318.74 RFU and 3962.04 RFU and 4565.28 RFU
SYPRO Orange signal ([4]; 45 °C): 4441.97 RFU and 4486.34 RFU and 4844.62 RFU
SYPRO Orange signal ([4]; 46 °C): 4211.77 RFU and 4260.63 RFU and 4968.21 RFU
SYPRO Orange signal ([4]; 47 °C): 4373.79 RFU and 4230.69 RFU and 5223.57 RFU
SYPRO Orange signal ([4]; 48 °C): 4498.26 RFU and 4475.58 RFU and 5425.59 RFU
SYPRO Orange signal ([4]; 49 °C): 4340.35 RFU and 4714.02 RFU and 5268.69 RFU
SYPRO Orange signal ([4]; 50 °C): 4485.42 RFU and 5458.05 RFU and 5615.3 RFU
SYPRO Orange signal ([4]; 51 °C): 4604.33 RFU and 5107.27 RFU and 5354.22 RFU
SYPRO Orange signal ([4]; 52 °C): 5022.8 RFU and 5726.6 RFU and 5626.72 RFU
SYPRO Orange signal ([4]; 53 °C): 4693.9 RFU and 5357.42 RFU and 5723.4 RFU
SYPRO Orange signal ([4]; 54 °C): 5145.37 RFU and 5267.66 RFU and 5696.12 RFU
SYPRO Orange signal ([4]; 55 °C): 5092.31 RFU and 5640.53 RFU and 5805.8 RFU
SYPRO Orange signal ([4]; 56 °C): 5376.44 RFU and 5740.37 RFU and 6240.29 RFU
SYPRO Orange signal ([4]; 57 °C): 5795.89 RFU and 6125.1 RFU and 6368.47 RFU
SYPRO Orange signal ([4]; 58 °C): 6695.88 RFU and 6816.03 RFU and 6922.68 RFU
SYPRO Orange signal ([4]; 59 °C): 7506.28 RFU and 7927.03 RFU and 8327.92 RFU
SYPRO Orange signal ([4]; 60 °C): 8418.89 RFU and 8998.05 RFU and 9121.6 RFU
SYPRO Orange signal ([4]; 61 °C): 10127.5 RFU and 10289.3 RFU and 10665.8 RFU
SYPRO Orange signal ([4]; 62 °C): 13439.7 RFU and 13687 RFU and 13903.4 RFU
SYPRO Orange signal ([4]; 63 °C): 18625.9 RFU and 17795.7 RFU and 19339.8 RFU
SYPRO Orange signal ([4]; 64 °C): 28651.8 RFU and 27296.2 RFU and 29478.9 RFU
SYPRO Orange signal ([4]; 65 °C): 45763 RFU and 43603.6 RFU and 46881 RFU
SYPRO Orange signal ([4]; 66 °C): 72246.9 RFU and 67949.6 RFU and 73557.6 RFU
Tm (°C) with BXA ([4]; A(H1N1)pdm09 PAN E23G+I38T 2 μM, BXA 37 μM): 67 °C and 67.0 ± 0.1 °C
ΔTm (°C) ([4]; A(H1N1)pdm09 PAN E23G+I38T, DMSO vs BXA 37 μM): 13.1 ± .3 °C
SYPRO Orange signal ([4]; Panel A, E23G+I38T, 72 °C): 239649 RFU and 222711 RFU and 238879 RFU
SYPRO Orange signal ([4]; Panel A, E23G+I38T, 73 °C): 241154 RFU and 224478 RFU and 240878 RFU
SYPRO Orange signal ([4]; Panel A, E23G+I38T, 74 °C): 240519 RFU and 224874 RFU and 241335 RFU
SYPRO Orange signal ([4]; Panel A, E23G+I38T, 75 °C): 238176 RFU and 223710 RFU and 241893 RFU
SYPRO Orange signal ([4]; Panel A, E23G+I38T, 76 °C): 235365 RFU and 222482 RFU and 241290 RFU
SYPRO Orange signal ([4]; Panel A, E23G+I38T, 77 °C): 231389 RFU and 220568 RFU and 239843 RFU
SYPRO Orange signal ([4]; Panel A, E23G+I38T, 78 °C): 226714 RFU and 217929 RFU and 237837 RFU
SYPRO Orange signal ([4]; Panel A, E23G+I38T, 79 °C): 221758 RFU and 214594 RFU and 233932 RFU
SYPRO Orange signal ([4]; Panel A, E23G+I38T, 80 °C): 216762 RFU and 210971 RFU and 230989 RFU
SYPRO Orange signal ([4]; Panel A, E23G+I38T, 81 °C): 211784 RFU and 207261 RFU and 227067 RFU
SYPRO Orange signal ([4]; Panel A, E23G+I38T, 82 °C): 206502 RFU and 202939 RFU and 220907 RFU
SYPRO Orange signal ([4]; Panel A, E23G+I38T, 83 °C): 200896 RFU and 198763 RFU and 216642 RFU
SYPRO Orange signal ([4]; Panel A, E23G+I38T, 84 °C): 195654 RFU and 193947 RFU and 211728 RFU
SYPRO Orange signal ([4]; Panel A, E23G+I38T, 85 °C): 190074 RFU and 189227 RFU and 206322 RFU
SYPRO Orange signal ([4]; Panel A, E23G+I38T, 86 °C): 185495 RFU and 184506 RFU and 203327 RFU
SYPRO Orange signal ([4]; Panel A, E23G+I38T, 87 °C): 180794 RFU and 180062 RFU and 199069 RFU
SYPRO Orange signal ([4]; Panel A, E23G+I38T, 88 °C): 173738 RFU and 174159 RFU and 194724 RFU
SYPRO Orange signal ([4]; Panel A, E23G+I38T, 89 °C): 171839 RFU and 167967 RFU and 190146 RFU
SYPRO Orange signal ([4]; Panel A, E23G+I38T, 90 °C): 166322 RFU and 162300 RFU and 185310 RFU
SYPRO Orange signal ([4]; Panel A, E23G+I38T, 91 °C): 162027 RFU and 158294 RFU and 182212 RFU
SYPRO Orange signal ([4]; Panel A, E23G+I38T, 92 °C): 158352 RFU and 152530 RFU and 178458 RFU
SYPRO Orange signal ([4]; Panel A, E23G+I38T, 93 °C): 153088 RFU and 152064 RFU and 175597 RFU
SYPRO Orange signal ([4]; Panel A, E23G+I38T, 94 °C): 144006 RFU and 146726 RFU and 171431 RFU
SYPRO Orange signal ([4]; Panel A, E23G+I38T, 95 °C): 127942 RFU and 145249 RFU and 160184 RFU
SYPRO Orange signal ([4]; Panel A, E23G+I38T, 96 °C): 128529 RFU and 139589 RFU and 149386 RFU
SYPRO Orange signal ([4]; Panel A, E23G+I38T, 97 °C): 122484 RFU and 133504 RFU and 138067 RFU
SYPRO Orange signal ([4]; Panel A, E23G+I38T, 98 °C): 114178 RFU and 124290 RFU and 129784 RFU
SYPRO Orange signal ([4]; Panel A, E23G+I38T, 99 °C): 107716 RFU and 118936 RFU and 123851 RFU
SYPRO Orange signal [5]: 1753.75 RFU and 1760.28 RFU and 2022.58 RFU

Values joined by “and” are separate entries in the source; they are usually repeats but may differ in a detail not shown here. Identical values can stand only once.
